Experimental data: paper PMC9270327 (Communications Biology, 2022)

Amino acid sequences for entries named in this document (tags omitted).
UniProt O15393, whole entry: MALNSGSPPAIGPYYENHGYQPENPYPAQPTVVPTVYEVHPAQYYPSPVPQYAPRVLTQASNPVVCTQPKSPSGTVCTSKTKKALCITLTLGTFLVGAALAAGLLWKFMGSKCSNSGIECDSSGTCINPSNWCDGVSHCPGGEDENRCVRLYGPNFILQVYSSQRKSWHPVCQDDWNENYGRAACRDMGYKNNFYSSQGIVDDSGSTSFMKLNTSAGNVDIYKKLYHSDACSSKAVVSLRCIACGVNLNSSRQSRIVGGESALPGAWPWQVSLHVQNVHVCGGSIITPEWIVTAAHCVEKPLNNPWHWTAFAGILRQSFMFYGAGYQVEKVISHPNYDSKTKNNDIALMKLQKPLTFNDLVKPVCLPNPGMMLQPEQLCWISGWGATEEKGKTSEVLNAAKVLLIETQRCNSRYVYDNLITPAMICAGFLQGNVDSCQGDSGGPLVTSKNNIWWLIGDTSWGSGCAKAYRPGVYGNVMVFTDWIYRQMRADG

Tests used:
TMPRSS2 [1] = molecular target: T1, TMPRSS2 (Homo sapiens, UniProt O15393)
TMPRSS2 [2] = molecular target: T1, TMPRSS2; remark: listed apart in the source

For CC(=O)N[C@H](CCCNC(=N)N)C(=O)N[C@@H](CC1CCC1)C(=O)NC(CCCNC(=N)N)C(=O)c1nc2ccccc2s1 (stereo partly shown), the “TMPRSS2 activity, Mean (0 nM = 100)” value (TMPRSS2 [1]; inhibitor 16.65 nM, 60 min in plasma) was 96.8449, the “TMPRSS2 activity, Mean (0 nM = 100)” value (TMPRSS2 [1]; inhibitor 16.65 nM, 120 min in plasma) was 89.3123 and the “TMPRSS2 activity, Mean (0 nM = 100)” value (TMPRSS2 [1]; inhibitor 16.65 nM, 24 h in plasma) was 95.2489. The “TMPRSS2 activity, Mean (0 nM = 100)” value (TMPRSS2 [1]; inhibitor 16.65 nM, 10 d in plasma) was 97.0792, the “TMPRSS2 activity, Mean (0 nM = 100)” value (TMPRSS2 [1]; inhibitor 166.5 nM, 0 min in plasma) was 65.7145 and the “TMPRSS2 activity, Mean (0 nM = 100)” value (TMPRSS2 [1]; inhibitor 166.5 nM, 30 min in plasma) was 82.4901. The “TMPRSS2 activity, Mean (0 nM = 100)” value (TMPRSS2 [1]; inhibitor 166.5 nM, 60 min in plasma) was 70.0482, the “TMPRSS2 activity, Mean (0 nM = 100)” value (TMPRSS2 [1]; inhibitor 166.5 nM, 120 min in plasma) was 62.4045 and the “TMPRSS2 activity, Mean (0 nM = 100)” value (TMPRSS2 [1]; inhibitor 166.5 nM, 24 h in plasma) was 65.047. The “TMPRSS2 activity, Mean (0 nM = 100)” value (TMPRSS2 [1]; inhibitor 166.5 nM, 10 d in plasma) was 79.9649, the “TMPRSS2 activity, Mean (0 nM = 100)” value (TMPRSS2 [1]; inhibitor 1665 nM, 0 min in plasma) was 16.8007 and the “TMPRSS2 activity, Mean (0 nM = 100)” value (TMPRSS2 [1]; inhibitor 1665 nM, 30 min in plasma) was 29.6147. For the same compound, the “TMPRSS2 activity, Mean (0 nM = 100)” value (TMPRSS2 [1]; inhibitor 1665 nM, 60 min in plasma) was 24.841, the “TMPRSS2 activity, Mean (0 nM = 100)” value (TMPRSS2 [1]; inhibitor 1665 nM, 120 min in plasma) was 22.2652 and the “TMPRSS2 activity, Mean (0 nM = 100)” value (TMPRSS2 [1]; inhibitor 1665 nM, 24 h in plasma) was 26.7809. The “TMPRSS2 activity, Mean (0 nM = 100)” value (TMPRSS2 [1]; inhibitor 1665 nM, 10 d in plasma) was 39.3154, the “Residual TMPRSS2 activity, Mean (0 nM = 100)” value (from here on “Residual TMPRSS2 activity”) (TMPRSS2 [2]; inhibitor 0.0167 nM, 0 min in cell culture medium) was 99.8464 and the “Residual TMPRSS2 activity” value (TMPRSS2 [2]; inhibitor 0.0167 nM, 30 min in cell culture medium) was 97.1211. For the same compound, the “Residual TMPRSS2 activity” value (TMPRSS2 [2]; inhibitor 0.0167 nM, 60 min in cell culture medium) was 98.7825, the “Residual TMPRSS2 activity” value (TMPRSS2 [2]; inhibitor 0.0167 nM, 120 min in cell culture medium) was 93.642 and the “Residual TMPRSS2 activity” value (TMPRSS2 [2]; inhibitor 0.0167 nM, 24 h in cell culture medium) was 94.4491. For the same compound, the “Residual TMPRSS2 activity” value (TMPRSS2 [2]; inhibitor 0.0167 nM, 10 d in cell culture medium) was 98.6379, the “Residual TMPRSS2 activity” value (TMPRSS2 [2]; inhibitor 0.0167 nM, positive ctrl) was 96.2013 and the “Residual TMPRSS2 activity” value (TMPRSS2 [2]; inhibitor 0.167 nM, 0 min in cell culture medium) was 98.5685. For the same compound, the “Residual TMPRSS2 activity” value (TMPRSS2 [2]; inhibitor 0.167 nM, 30 min in cell culture medium) was 99.0315, the “Residual TMPRSS2 activity” value (TMPRSS2 [2]; inhibitor 0.167 nM, 60 min in cell culture medium) was 101.078 and the “Residual TMPRSS2 activity” value (TMPRSS2 [2]; inhibitor 0.167 nM, 120 min in cell culture medium) was 96.3071. The “Residual TMPRSS2 activity” value (TMPRSS2 [2]; inhibitor 0.167 nM, 24 h in cell culture medium) was 95.5583, the “Residual TMPRSS2 activity” value (TMPRSS2 [2]; inhibitor 0.167 nM, 10 d in cell culture medium) was 98.6274 and the “Residual TMPRSS2 activity” value (TMPRSS2 [2]; inhibitor 0.167 nM, positive ctrl) was 98.3227. For the same compound, the “Residual TMPRSS2 activity” value (TMPRSS2 [2]; inhibitor 1.665 nM, 0 min in cell culture medium) was 99.6928, the “Residual TMPRSS2 activity” value (TMPRSS2 [2]; inhibitor 1.665 nM, 30 min in cell culture medium) was 99.7944 and the “Residual TMPRSS2 activity” value (TMPRSS2 [2]; inhibitor 1.665 nM, 60 min in cell culture medium) was 99.008. For the same compound, the “Residual TMPRSS2 activity” value (TMPRSS2 [2]; inhibitor 1.665 nM, 120 min in cell culture medium) was 92.9853, the “Residual TMPRSS2 activity” value (TMPRSS2 [2]; inhibitor 1.665 nM, 24 h in cell culture medium) was 97.5811 and the “Residual TMPRSS2 activity” value (TMPRSS2 [2]; inhibitor 1.665 nM, 10 d in cell culture medium) was 97.9533. For the same compound, the “Residual TMPRSS2 activity” value (TMPRSS2 [2]; inhibitor 1.665 nM, positive ctrl) was 107.192, the “Residual TMPRSS2 activity” value (TMPRSS2 [2]; inhibitor 16.65 nM, 0 min in cell culture medium) was 95.5029 and the “Residual TMPRSS2 activity” value (TMPRSS2 [2]; inhibitor 16.65 nM, 30 min in cell culture medium) was 97.2869. For the same compound, the “Residual TMPRSS2 activity” value (TMPRSS2 [2]; inhibitor 16.65 nM, 60 min in cell culture medium) was 94.2688, the “Residual TMPRSS2 activity” value (TMPRSS2 [2]; inhibitor 16.65 nM, 120 min in cell culture medium) was 89.8587 and the “Residual TMPRSS2 activity” value (TMPRSS2 [2]; inhibitor 16.65 nM, 24 h in cell culture medium) was 95.046. For the same compound, the “Residual TMPRSS2 activity” value (TMPRSS2 [2]; inhibitor 16.65 nM, 10 d in cell culture medium) was 97.0792, the “Residual TMPRSS2 activity” value (TMPRSS2 [2]; inhibitor 16.65 nM, positive ctrl) was 91.2788 and the “Residual TMPRSS2 activity” value (TMPRSS2 [2]; inhibitor 166.5 nM, 0 min in cell culture medium) was 65.4297. For the same compound, the “Residual TMPRSS2 activity” value (TMPRSS2 [2]; inhibitor 166.5 nM, 30 min in cell culture medium) was 65.6053, the “Residual TMPRSS2 activity” value (TMPRSS2 [2]; inhibitor 166.5 nM, 60 min in cell culture medium) was 82.5901 and the “Residual TMPRSS2 activity” value (TMPRSS2 [2]; inhibitor 166.5 nM, 120 min in cell culture medium) was 68.4433. The “Residual TMPRSS2 activity” value (TMPRSS2 [2]; inhibitor 166.5 nM, 24 h in cell culture medium) was 76.4392, the “Residual TMPRSS2 activity” value (TMPRSS2 [2]; inhibitor 166.5 nM, 10 d in cell culture medium) was 79.9649 and the “Residual TMPRSS2 activity” value (TMPRSS2 [2]; inhibitor 166.5 nM, positive ctrl) was 63.5641. For the same compound, the “Residual TMPRSS2 activity” value (TMPRSS2 [2]; inhibitor 1665 nM, 0 min in cell culture medium) was 16.8827, the “Residual TMPRSS2 activity” value (TMPRSS2 [2]; inhibitor 1665 nM, 30 min in cell culture medium) was 10.5937 and the “Residual TMPRSS2 activity” value (TMPRSS2 [2]; inhibitor 1665 nM, 60 min in cell culture medium) was 17.7707. The “Residual TMPRSS2 activity” value (TMPRSS2 [2]; inhibitor 1665 nM, 120 min in cell culture medium) was 20.9775, the “Residual TMPRSS2 activity” value (TMPRSS2 [2]; inhibitor 1665 nM, 24 h in cell culture medium) was 23.677 and the “Residual TMPRSS2 activity” value (TMPRSS2 [2]; inhibitor 1665 nM, 10 d in cell culture medium) was 39.3154. The “Residual TMPRSS2 activity” value (TMPRSS2 [2]; inhibitor 1665 nM, positive ctrl) was 12.9255.

Like-named read-outs stand apart in the source and are kept apart here.
